In PMC7018034, “Antimicrobial activity of Ib-M peptides against Escherichia coli O157: H7” (PLoS ONE, 2020):
Ends that are not written are not given here.

Legend:
[1] = tested on: E. coli O157: H7 (ATCC 43888); type: cell-based, Escherichia coli O157: H7; conditions: ratio CC50 in VERO cells / MIC in ATCC 43888; maximum evaluated concentration used where CC50 not determined
[2] = tested on: E. coli O157: H7 clinical isolate (AC188); type: cell-based, Escherichia coli O157: H7; conditions: ratio CC50 in VERO cells / MIC in AC188; maximum evaluated concentration used where CC50 not determined

EWGRRMMGRGPGRRMMRRWW-NH2 [Ib-M4]
SI (selectivity index) E. coli O157: H7 ATCC 43888 [1]: >32 | SI (selectivity index) E. coli O157: H7 AC188 [2]: >63.5

EWGRRMMGRGPGRRMMRWWR-NH2 [Ib-M1]
SI (selectivity index) E. coli O157: H7 ATCC 43888 [1]: 84.1 | SI (selectivity index) E. coli O157: H7 AC188 [2]: 247

EWGRRMMGWGRGRRMMRRWW-NH2 [Ib-M6]
SI (selectivity index) E. coli O157: H7 ATCC 43888 [1]: 33.1 | SI (selectivity index) E. coli O157: H7 AC188 [2]: 66.1

EWGRRMMGWRPGRRMMRRWW-NH2 [Ib-M5]
SI (selectivity index) E. coli O157: H7 ATCC 43888 [1]: 38 | SI (selectivity index) E. coli O157: H7 AC188 [2]: 67.1

EWGRRMMGWRPGRRMMRWWR-NH2 [Ib-M2]
SI (selectivity index) E. coli O157: H7 ATCC 43888 [1]: 42 | SI (selectivity index) E. coli O157: H7 AC188 [2]: 54.9
